We go through 1 compound from ChEMBL document CHEMBL1629609, “Phenotypic and enzymatic comparative analysis of the novel KPC variant KPC-5 and its evolutionary variants, KPC-2 and KPC-4” (Antimicrob Agents Chemother, 2009).

Molecules are shown by their SMILES.

The subject of this assay is Escherichia coli. Put plainly: Ratio of MIC for Escherichia coli TOP10 harboring beta-lactamase KPC-2 to MIC for Escherichia coli TOP10 harboring beta-lactamase KPC-4. In kind it is functional.

For the compound `CCN1CCN(C(=O)N[C@@H](C(=O)N[C@@H]2C(=O)N3[C@@H]2SC(C)(C)[C@@H]3C(=O)O)c2ccccc2)C(=O)C1=O` [PIPERACILLIN], the Ratio stood at 4.
